Test results as given in patent publication US10080365B2, “Use of strobilurin type compounds for combating phytopathogenic fungi resistant to Qo inhibitors” (BASF SE, priority 2011, dated 2018).

Test system: Septoria tritici
Assay: Field Trial 2: efficacy against Septoria tritici on winter wheat (Limburgerhof)
Assay type: in vivo, Septoria tritici on winter wheat (cv. Riband)
Conditions: after the treatments, 200 g a.i./ha
Experimental: Compound I-6 was used as 50 g/l EC formulation. Pyraclostrobin was used as commercial product HEADLINE.
This trial was conducted under field conditions in Limburgerhof, Rhineland-Palatinate, Germany. Seeds of winter wheat (cv. Riband) were planted and grown under standard conditions with adequate supply of water and nutrients. At growing stage GS 33 (Apr. 8, 2011), a first compound treatment (200 g a.i per ha) was made with a water volume of 400 L/ha, which was repeated 26 days later at growing stage GS 39. No further fungicide treatments were applied. Infection with fungal pathogens (e.g. Septoria tritici) occurred naturally. The evaluation of the disease incidences for Septoria tritici 19 and 34 days after the last treatment (DAA) are shown in Table IV. In the last row, the evaluation of the percentage of Qo inhibitor-resistant Septoria tritici isolates with the G143A mutation after the treatments is given.

Structure (SMILES) | Percentage of G143A mutation (%) in Septoria tritici isolates
CNC(=O)C(=N/OC)/C(C)=C\COc1ccn(-c2ccc(Cl)cc2)n1 [Compound I-6, (Z)-5-[1-(4-Chloro-phenyl)-1H-pyrazol-3-yloxy]-2-[(E)-methoxyimino]-3-methyl-pent-3-enic acid methyl amide] | 99%
COC(=O)N(OC)c1ccccc1COc1ccn(-c2ccc(Cl)cc2)n1 [Pyraclostrobin, reference compound] | 100%
